The text below walks through data of PubChem BioAssay AID1899 (The Scripps Research Institute Molecular Screening Center, 2009).

Each structure is given as a SMILES string. Only a part is listed here, and it is no random draw. Some salts and complexes are drawn in separate pieces, as the source files them; their charges need not balance. The source made the active and inactive calls.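 Rule for the calls: active = inhibition above the mean of all tested compounds plus 3 SD, set per screening campaign (cut at about 45% in these data); inactive = the rest.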

The test system of this assay is HCV core protein (residues 1-106) dimerization. The experiment in a line: blockers of core106 self-association – biochemical, TR-FRET, high-throughput, primary screen (AID 1899). The note with it: TR-FRET GST/Flag-core106 dimerization, 1536-well; at 5 µM; hits give high values. In short, it runs like this: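 Assay system: tagged HCV core106 pair (GST and Flag); medium: KF-containing HEPES buffer, pH 7.45, DTT, CHAPS, BSA; also added: Eu donor and XL665 acceptor anti-tag antibodies; dosing: 5 µM single dose; timing: compound-protein-antibody incubation 4 h at 22.5 °C; signal: TR-FRET 671 and 617 nm emission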
For `CCOC(=O)c1ccc(NP(C)(=O)Oc2ccc(F)cc2)cc1` (configuration not stated), the inhibition (usually the change of the read-out against control, counted positive when it falls) is inactive: -9.77%. Then `COc1ccc(OP(C)(=O)Nc2ccc(SC(F)(F)F)cc2)cc1` (configuration not stated), with inactive: 1%. Take `CP(=O)(Nc1ccccc1)Oc1ccc(F)cc1` (configuration not stated): the inhibition was inactive: -6.31%. On to `CCCCCOc1ccc(NP(C)(=O)Oc2ccc(Cl)cc2Cl)cc1` (configuration not stated), for which the inhibition is inactive: -4.12%. Next, `O=[N+]([O-])c1cc([N+](=O)[O-])c(OC2CCCCC2O)c([N+](=O)[O-])c1` (configuration not stated): inactive: 6.53%.

As for `CCN(CC)CCCOC(=O)C(O)(c1ccccc1)C1CCCCC1` (configuration not stated), the inhibition was inactive: -3.62%. On to `CP(=O)(Nc1ccccc1F)Oc1ccccc1` (configuration not stated), for which the inhibition is inactive: -2.76%. On to `CC(C)c1ccc(OP(C)(=O)Nc2ccc(SC(F)(F)F)cc2)cc1` (configuration not stated), for which the inhibition is inactive: -5.62%. For the molecule `COc1ccc2c(c1O)-c1c(O)c(OC)cc3c1[C@H](C2)[N+](C)(C)CC3.O=[N+]([O-])c1cc([N+](=O)[O-])c([O-])c([N+](=O)[O-])c1[O-]`, the inhibition was inactive: 4.16%.

With `O=C(OC1CN2CCC1CC2)c1ccc([N+](=O)[O-])cc1` (configuration not stated), the inhibition is inactive: -0.47%. For `O=C(OCCN1CCN(CCOCc2ccccc2)CC1)C(O)(c1ccccc1)c1ccccc1`, the inhibition is inactive: 0.16%.

As to `CCOP(C)(=S)SCC(=O)NC(C)(CC)C(=O)O` (configuration not stated), the inhibition is inactive: -3.06%.

With `CP(=O)(Nc1ccc(SC(F)(F)F)cc1)Oc1ccc(F)cc1` (configuration not stated), the inhibition is inactive: 5.56%. As to `Cc1ccccc1NP(C)(=O)Nc1ccccc1C`, the inhibition is inactive: 0.16%. For the molecule `CP(=O)(Nc1ccc2c(c1)OCCO2)Oc1ccccc1` (configuration not stated), the inhibition was inactive: -2.56%. With `CN(C)CCOC(=O)C(O)(c1ccccc1)C1CCCCC1` (configuration not stated), the inhibition is inactive: -0.78%.

As to `COc1ccc(NP(C)(=O)Oc2ccccc2OC)cc1` (configuration not stated), the inhibition is inactive: 2.88%. Next, `COc1ccc(OP(C)(=O)Nc2cccc(Br)c2)cc1` (configuration not stated): inactive: -2.09%; `O=[N+]([O-])c1cc([N+](=O)[O-])c(NCC2CCS(=O)(=O)C2)c([N+](=O)[O-])c1` (configuration not stated): inactive: 5.72%; `CCOC(=O)c1ccc(NP(C)(=O)Oc2ccc(Cl)cc2)cc1` (configuration not stated): inactive: -1.61%.

As for `CP(=O)(OC12CC3CC(CC(C3)C1)C2)OC12CC3CC(CC(C3)C1)C2`, the inhibition is inactive: 5.88%.

As to `Nc1ccc2c(ccc3cccnc32)n1.O=[N+]([O-])c1cc([N+](=O)[O-])c(O)c([N+](=O)[O-])c1`, the inhibition was inactive: 0.99%. As to `COc1ccccc1OP(C)(=O)Nc1c(C)n(C)n(-c2ccccc2)c1=O` (configuration not stated), the inhibition was inactive: -8.55%. On to `O=C(OCCCN1CCCC1)C(O)(c1ccccc1)C1CCCCC1` (configuration not stated), for which the inhibition was inactive: 0.15%.

With `CP(=O)(Oc1ccccc1)N1CCOC1=O` (configuration not stated), the inhibition was inactive: -4.09%. Then `CCc1ccc(OP(C)(=O)Nc2cccnc2)cc1` (configuration not stated), with inactive: 0.25%. Consider `CCN(CC)CC(O)COC(=O)C(O)(c1ccccc1)C1CCCCC1` (configuration not stated), for which the inhibition was inactive: -7.04%.

For `COc1ccc(OP(C)(=O)Nc2ccc(Br)cc2)cc1` (configuration not stated), the inhibition was inactive: 1.28%.

Turning to `CN(C)C(=O)c1c([N+](=O)[O-])cc([N+](=O)[O-])cc1[N+](=O)[O-]`, the inhibition was inactive: -2.36%. `CC(C)(C)c1ccc(OP(C)(=O)O)cc1`: the inhibition was inactive: -5.57%. In the case of `COc1ccccc1OP(C)(=O)Nc1ccccc1Br` (configuration not stated), the inhibition was inactive: -4.23%. With `CP(=O)(Nc1ccc(Cl)cc1)Oc1ccc(F)cc1` (configuration not stated), the inhibition was inactive: -6.14%. Turning to `COc1ccc(OP(C)(=O)Nc2ccccn2)cc1` (configuration not stated), the inhibition is inactive: 6.18%. Regarding `CN(C)CCOC(=O)C(O)(c1ccccc1)C1CCCC1` (configuration not stated), the inhibition is inactive: -4.12%. With `COc1ccccc1OP(C)(=O)Nc1ccc(Br)cc1` (configuration not stated), the inhibition was inactive: -2.33%. In the case of `CP(=O)(Nc1ccccn1)Oc1ccccc1` (configuration not stated), the inhibition is inactive: -0.62%. For `COc1ccccc1OP(C)(=O)Nc1ccc(C)cc1C` (configuration not stated), the inhibition is inactive: -2.1%. Then `CCc1ccc(OP(C)(=O)O)cc1`, with inactive: -2.2%; and `O=[N+]([O-])c1cc([N+](=O)[O-])c(Nc2ccccn2)c([N+](=O)[O-])c1`, with inactive: -0.85%; and `Cc1c(NP(C)(=O)Oc2ccc(C(C)C)cc2)c(=O)n(-c2ccccc2)n1C` (configuration not stated), with inactive: -3.73%.

With `COc1ccccc1OP(C)(=O)Nc1ccc(C)c(C)c1` (configuration not stated), the inhibition is inactive: -1.46%.

Take `COc1ccc(OP(C)(=O)Nc2ccccc2Br)cc1` (configuration not stated): the inhibition was inactive: 0.51%. Consider `Cc1cc(C)cc(OP(C)(=O)Nc2cccc(C(F)(F)F)c2)c1` (configuration not stated), for which the inhibition was inactive: -5.1%. `CP(=O)(OCCOc1ccccc1)OCCOc1ccccc1`: the inhibition was inactive: 2.88%. For the molecule `CP(=O)(Nc1ccc(Cl)cc1Cl)Oc1ccccc1` (configuration not stated), the inhibition is inactive: -2.19%. Consider `Cc1nc2ccc3ccccc3c2o1.O=[N+]([O-])c1cc([N+](=O)[O-])c(O)c([N+](=O)[O-])c1`, for which the inhibition was inactive: -6.35%. For the molecule `O=[N+]([O-])c1ccc2c(c1)C=Nc1ccccc1O2`, the inhibition was inactive: 7.86%. As to `CC(C)(C)c1ccc(OP(C)(=O)Nc2ccc(SC(F)(F)F)cc2)cc1` (configuration not stated), the inhibition was inactive: 2.23%. Turning to `Cc1cccc(C)c1OP(C)(N)=O` (configuration not stated), the inhibition is inactive: -0.27%.

`O=[N+]([O-])c1cc([N+](=O)[O-])c(Nc2cccnc2)c([N+](=O)[O-])c1`: the inhibition is inactive: -3.06%. As to `Cc1cc(C)cc(OP(C)(N)=O)c1` (configuration not stated), the inhibition was inactive: -1%.

Turning to `COc1ccccc1OP(C)(=O)Nc1cc(Cl)ccc1C` (configuration not stated), the inhibition is inactive: 4.36%. Then `COc1ccc(OP(C)(=O)Nc2cccc(F)c2)cc1` (configuration not stated), with inactive: -2.99%; and `COc1ccccc1OP(C)(=O)Nc1ccc(C)cc1` (configuration not stated), with inactive: -3.52%; and `Cc1ccc(NP(C)(=O)Oc2ccccc2)c(C)c1` (configuration not stated), with inactive: -10.8%.

`CCOC(=O)c1ccc(NP(C)(=O)Oc2ccccc2)cc1` (configuration not stated): the inhibition was inactive: -0.21%. On to `CCN(CC)CCCOC(=O)C(O)(c1ccccc1)c1ccccc1`, for which the inhibition was inactive: 7.09%. Take `CCc1ccc(OP(C)(=O)N2CCN(c3ccc([N+](=O)[O-])cc3)CC2)cc1` (configuration not stated): the inhibition was inactive: -1.45%. With `CP(=O)(NC(=O)Nc1ccccc1)Oc1ccccc1` (configuration not stated), the inhibition is inactive: 3.95%. Next, `Cc1cc(C)cc(OP(C)(=O)Nc2ccc(SC(F)(F)F)cc2)c1` (configuration not stated): inactive: 1.94%. For `Cc1cccc(C)c1OP(C)(=O)Nc1ccc(SC(F)(F)F)cc1` (configuration not stated), the inhibition was inactive: -2.52%.

In the case of `CP(=O)(Nc1ccc(SC(F)(F)F)cc1)Oc1ccc(Cl)cc1` (configuration not stated), the inhibition was inactive: 0.81%.
